Compound potency records, mixed from different reports. Data source: NIAID ChemDB in PubChem.

MIC bound: limit read from a one-dose screen. Percent inhibition refers to the dose given; in toxicity tests it is the harm to the cells. An empty or dashed field is not shown. Lines come from different laboratories, so protocols vary. A number after MIC or MFC names an inhibition level or a share of isolates.

SMILES	species	strain or isolate	read by	test	dose	endpoint	protein	result
CCCCC(CC)CN1CN(CC(CC)CCCC)CC(C)(NCCNC2CCCCC2)C1	Mycobacterium tuberculosis			culture		MIC		12.5 µM
O=C(O)c1cc(Br)c(Br)c(Br)c1	Mycobacterium tuberculosis	H37Rv		culture		MIC		>100 µg/mL
CC(C)C[C@@H](CO)NCCNCCc1ccc(Cl)cc1Cl	Mycobacterium tuberculosis			culture		MIC		25 µM
CC(CCC(=O)NN)C1CCC2C3CCC4CC(O)CCC4(C)C3CCC12C	Mycobacterium tuberculosis	H37Rv	BACTEC	culture	12.5 µg/mL	inhibition		0%
CC(CNC1CCCCCCC1)NCCC(c1ccccc1)c1ccccc1	Mycobacterium tuberculosis			culture		MIC		12.5 µM
N#CC12C3C4C5C3C1C(C42)n1c(=O)n(-c2ccccc2)c(=O)n15	Mycobacterium tuberculosis	H37Rv	resazurin	culture		MIC bound		>6.25 µg/mL
Nc1cccc(NC(=O)c2ccccc2)c1	Mycobacterium tuberculosis	H37Rv		culture		MIC		>100 µg/mL
C[n+]1c(-c2ccc(NC(=O)c3ccc(C(=O)Nc4ccc(-c5cn6ccccc6[n+]5C)cc4)cc3)cc2)cn2ccccc21	Mycobacterium tuberculosis	H37Rv	BACTEC	culture	12.5 µg/mL	inhibition		93%
CCOC(=O)C(=CNc1cccc2cccnc12)C(=O)OCC	Mycobacterium tuberculosis	H37Rv		culture		MIC		>100 µg/mL
CCCCCCCCCCCNCCNCCC(c1ccccc1)c1ccccc1	Mycobacterium tuberculosis			culture		MIC		12.5 µM
CC(=O)Nn1cnc(C(C#N)C=N)c1N	Mycobacterium tuberculosis	H37Rv	BACTEC	culture		MIC bound		>12.5 µg/mL
Fc1ccc(N2CCCCC2)c(NC(=S)c2ccncc2)c1			kinase activity	host protein	10 µM	inhibition	FGFR1 (V561M)	2%
O=C1CCCN1CCCNCCNCC(c1ccccc1)c1ccccc1	Mycobacterium tuberculosis			culture		MIC		25 µM
Nc1nc(N)nc(Cl)n1	Mycobacterium tuberculosis	H37Rv		culture		MIC		>100 µg/mL
CCN(CC)C(=S)[S][Bi]([S]C(=S)N(CC)CC)[S]C(=S)N(CC)CC	Mycobacterium tuberculosis	RMP-R		culture		MIC		1.6 µg/mL
OC(COc1ccccc1)COc1ccccc1	Mycobacterium tuberculosis	H37Rv		culture		MIC		100 µg/mL
COc1ccccc1CCNCCNC[C@]1(C)CCC[C@]2(C)c3ccc(C(C)C)cc3CC[C@@H]12	Mycobacterium tuberculosis			culture		MIC		25 µM
NC(Cc1cc(I)c(O)c(I)c1)C(=O)O	Mycobacterium tuberculosis	H37Rv		culture		MIC		100 µg/mL
NC1=NN(c2ccccc2)C(=O)C1/C(=N/NC(=O)c1cc2ccccc2cc1O)C(=O)Nc1cccc(C(F)(F)F)c1	Mycobacterium tuberculosis	H37Rv	resazurin	culture	6.25 µg/mL	inhibition		37%
CNC(=O)CCCCCCCCC(=O)NC	Mycobacterium tuberculosis	H37Rv		culture		MIC		>100 µg/mL
O=C(NC(N1CCN(c2cc3c(cc2F)c(=O)c(C(=O)O)cn3C2CC2)CC1)(C(F)(F)F)C(F)(F)F)c1ccccc1	Mycobacterium tuberculosis	H37Rv	resazurin	culture		MIC		0.78 µg/mL
c1ccc(CNCCN[C@H]2C[C@@H]3CC[C@H]2C3)cc1	Mycobacterium tuberculosis			culture		MIC		50 µM
CCCCCCCC/C=C/CCCCCC1CCCC(C)N1	Mycobacterium tuberculosis	H37Rv	BACTEC	culture		MIC		6.25 µg/mL
CC(CNC[C@@H]1CC[C@H]2C[C@@H]1C2(C)C)NCCC(c1ccccc1)c1ccccc1	Mycobacterium tuberculosis			culture		MIC		12.5 µM
Oc1oc(-c2ccccc2)nc1/C=C1/C=Nc2ccccc21	Mycobacterium tuberculosis	H37Rv		culture		MIC		>100 µg/mL
C=CCc1ccc(OC)c(OC)c1	Candida glabrata	3249	turbidity	culture		MIC90		345 µg/mL
CC1CCCCC1NCCNCCC(c1ccccc1)c1ccccc1	Mycobacterium tuberculosis			culture		MIC		6.25 µM
NC(=O)Nc1c([N+](=O)[O-])cc(C(F)(F)F)cc1[N+](=O)[O-]	Mycobacterium tuberculosis	H37Rv	BACTEC	culture		MIC bound		>12.5 µg/mL
CCOC(=O)c1c(C)[nH]c(C)cc1=O	Mycobacterium tuberculosis	H37Rv		culture		MIC		>100 µg/mL
COc1cc(O)c2c(O)c3c(=O)cc(C)oc3cc2c1	Mycobacterium tuberculosis	TAC-R		culture		MIC		>12.5 µg/mL
N#CCC(=O)c1cc2ccccc2cc1S(=O)(=O)Nc1ccc2cn[nH]c2c1	Mycobacterium tuberculosis	H37Rv		culture		MIC		>100 µg/mL
O=C1C(S(=O)(=O)O)=CC(=Nc2ccc(O)cc2)c2ccccc21	Mycobacterium tuberculosis	H37Rv	BACTEC	culture		MIC bound		>12.5 µg/mL
O=C(Nc1ccccc1)c1ccc([N+](=O)[O-])cc1O	Mycobacterium tuberculosis	H37Rv		culture		MIC		25 µg/mL

The first 5 rows once more:

SMILES	species	strain or isolate	read by	test	dose	endpoint	protein	result
CCCCC(CC)CN1CN(CC(CC)CCCC)CC(C)(NCCNC2CCCCC2)C1	Mycobacterium tuberculosis			culture		MIC		12.5 µM
O=C(O)c1cc(Br)c(Br)c(Br)c1	Mycobacterium tuberculosis	H37Rv		culture		MIC		>100 µg/mL
CC(C)C[C@@H](CO)NCCNCCc1ccc(Cl)cc1Cl	Mycobacterium tuberculosis			culture		MIC		25 µM
CC(CCC(=O)NN)C1CCC2C3CCC4CC(O)CCC4(C)C3CCC12C	Mycobacterium tuberculosis	H37Rv	BACTEC	culture	12.5 µg/mL	inhibition		0%
CC(CNC1CCCCCCC1)NCCC(c1ccccc1)c1ccccc1	Mycobacterium tuberculosis			culture		MIC		12.5 µM